Test results as given in publication PMC4945073, “Inhibition of the Hantavirus Fusion Process by Predicted Domain III and Stem Peptides from Glycoprotein Gc” (2016).

Target: Andes hantavirus (ANDV) Gc envelope glycoprotein (Andes hantavirus (ANDV) isolate CHI-7913)
Test: sucrose gradient sedimentation

## Andes hantavirus (ANDV) Gc envelope glycoprotein (natural protein)
  stoichiometry N: 3
